Measured values reported in US20150050744A1, “DIAGNOSTIC AGENT AND DIAGNOSTIC METHOD FOR IRRITABLE BOWEL SYNDROME INDUCED BY ABNORMAL PROLIFERATION OF ENTEROBACTERIA” (TRI-X BIOMEDICAL, INC., priority 2012, published 2015).

Tested on: enterobacteria
Test: 13C breath test: Δ13C value in exhaled breath after oral ^13C-mannitol
Type: in vivo, human

## ^13C-mannitol
Healthy subject, 300 mg ^13C-mannitol in 100 mL water, oral, from immediately after to 180 minutes after the administration, FIG. 1
  Δ^13C value (‰) in exhaled breath: −0.5 to 0.9 ‰
Subject suffering from an irritable bowel syndrome, oral aqueous ^13C-mannitol, at 30 minutes after the administration, then decreased, FIG. 2
  Δ^13C value (‰) in exhaled breath: 8 ‰
Subject suffering from an irritable bowel syndrome, oral aqueous ^13C-mannitol, within 20 minutes after the administration, FIG. 2
  Δ^13C value (‰) in exhaled breath: 5 ‰
